Ten molecules from patent US20170174752A1 (ISRAEL INSTITUTE OF BIOLOGICAL RESEARCH IIBR, published 2017) can be followed below.

The chains are these.
B1: MH74 (antibody, V domains shown)
VH: EVQLVQSGAEVKRPGESLKISCKTSGYSFTSYWISWVRQMPGKGLEWMGAIDPTDSDTRYNPSFQGQVTISADKSISTAYLQWSRLKASDTATYYCAKSDWSDYYGNSLDVWGRGVLVTASS
VL: QSVLTQPPSVSGAPGQRVTISCTGSNSNIGAGYYVQWYQQLPGTAPKLLIYENNKRPSGVSDRFSGSKSGTSASLTITGLQSEDEADYYCQSYDSSLSVVLFGGGTRLTVLA
B2: MH49 (antibody, V domains shown)
VH: EAQLEESGPGLVKPSETLSLSCAVSGGSFRSYWWGWIRQPPGKGLEWIGSIYGSSGSTEYNPSLKSRATISRDTSKNQFSLKLSSVTAADTAVYYCARQIQFLTDAFDFWGQGLRVTVSS
VL: QPGLTQPPSASGAPGQSVTISCSGSSSDIGSHDVYWYQQLPGTAPKLLIYYSNQRPSGVPDRISGSKSGTSASLTISGLRSEDEADYYCETWENSLSGPVFGGGTRLTVLA
B3: MH67 (antibody, V domains shown)
VH: QVQLEQSGPGLVKPSETLSLSCAVSGGSFRSYWWGWIRQPPGKGLEWIGSIYGSSGSTEYNPSLKSRATISRDTSKNQFSLKLSSVTAADTAVYYCARQIQFLTDAFDFWGQGLRVTASS
VL: DIQLTQSPSSVSASVGDRVTITCRASQAISTYLAWYLQRPGKAPELLIYYATTLHTGVASGLTGSGSGTDFTLTLSALQPVDVGTYYCQQFKTLPYTFGQGTKVDIKA
B4: MH76 (antibody, V domains shown)
VH: QVQLQESGGGLAKPGGSLRLSCAASGFTFSDYYMDWVRQAPGKGLDWVSRISNGGGTTWYADSVKGRFTISRENAKNTLYLQMNSLRPEDTAVYYCATVPTATSGIGNWGQGVLVTASS
VL: QPGLTQPHSVSVSPGQTARITCGGDNIGSKNVHWYQQKPPQAPVLVIYADSERPSGIPERFSGSNSGNTATLTISGVEAGDEADYYCQVWDSSSNHVLFGGGTRLTV
B5: MH36 (antibody, V domains shown)
VH: EVQLVESGGGLVQPGGSLRLSCAASGFTFSNVWMNWVRQTPGKGLEWVARIKVKADGGTADYAASVKGRFTISRDDSKNTLYLQMNSLKTEDTAVYYCTTEEITVARYDYWGQGVLVTVSS
VL: QSVLTQPPSASGAPGQSVTISCSGSSSNIRGNGVHWYQQLSGMAPKLLIYNNNQRPSGVPDRFSGSKSGTSASLAITGLQSEDEADYYCEAWDNSLSGGLFGGGTRLTVLA
B6: MH77 (antibody, V domains shown)
VH: QVQLLESGPGLVKPSETLSLTCTVSGGSFSSSHWWNWIRQAPGKGLEWIGYITTSNGATYYNPSLKSRVTISTDTSKNQFSLKLSSVTAADSAVYFCARGYSNWDNWFDVWGPGVLVTVSS
VL: DIQMSQSPSSLSASVGDKVTITCQASQSVSSWLAWYRQKPGKAPKPLIYKASSLEGGVPSRFSGSGSGTDFTLTINSLQPEDFATYYCQQYNSVPYSFGHGTKVDIKA
B7: MH1 (antibody, V domains shown)
VH: QLQLQESGPGLVKPSETLSLTCAVSGGSISGGYGWGWIRQPPGKGLEWVGSIYGSTGNTYYNPSLKSRVTISTDTSKNQLSLKVSSVTAADTAIYYCARARSGTLWFLEFWGQGAPVTASS
VL: QPVLTQPRSVSVSPGQTARITCGGDNIGSKSVQWYQQKPPQAPVLVIYADSERPSGIPERFSGSNSGNTATLTVSGVEAGDEADYYCQVWDSSSDHVLFGGGTRLTVLA
B8: MH75 (antibody, V domains shown)
VH: QEQLVQSGGGLAKPGGSLRLSCADSGFTFSDHYMDWVRQAPGKGLEWVSRISTGGGTTWYADSVKGRFTISRENANNTLYLQMNSLRGEDTAVYYCAKVPTGYSQGVWGQGVLVTASS
VL: QSVLTQPQSVSVSPGQTARITCGGDNIGSKNVHWYQQKPPQAPVLVIYAETERPSGIPERFSGSNSGNTATLTISGVEAGDEADYYCQVWDGSSAHVLFAGGTRLTVLA
B9: MH73 (antibody, V domains shown)
VH: QVQLQESGPGLVKPSETLSLTCAVSGGSLSSNYWSWIRQAPGKGLEWIGHIFGGGGGTDYNPSLKSRVTISTDTSKNQFSLKLSSLAAADTAVYYCARAAIMYPNRFDVWGPGVLVTASS
VL: ELLMTQSPSSLSASVGDRVTISCRASQNIYSNLAWYQQKPGKTPKLLIYAASILQSGIPSRFSGSGSGTDYTLTITNLQPEDFGTYYCQQGFGIPYTFGQGTKVEFKA
B10: MH2 (antibody, V domains shown)
VH: EVQLVESGGGLAKPGGSLRLSCAASGFTFSDYYMDWVRQAPGKGLEWVSRISNGGGSKWYADSVKGRFTISRENAKNTLYLQMNSLRAEDTAVYYCAEVPTGYSQGVWGPGVLFTVSS
VL: QSVLTQPQSVSVSPGQTARISCGGDNIGSKNVHWYQQKPPQAPVLVIYAGTERPSGIPERFSGSNSGNTATLTISGVEAGDEADYYCQVWDGTREHVLFGGGTRLTVLA

One experiment addresses T1, ricin toxin (Ricinus communis, UniProt P02879 36-302; P02879 315-576). The experiment can be described thus: ELISA / biolayer interferometry (FIG. 5).
As for B1, the binding result is given as “binds”.

Consider B2, for which the binding result was “binds”.

Regarding B3, the binding result was “binds”.

In the case of B4, the binding result is “binds”.

For the molecule B5, the binding result is given as “binds”.

The target of a further experiment is T1, ricin toxin. The experiment can be described thus: cell-based or functional assay.
On to B6, for which the “PD50 (ng/ml), in vitro neutralization of ricin (30 ng/ml) in HeLa Ub-FL cells” value (shortened to “PD50 (ng/ml), in vitro neutralization”) came to 600 ng/mL.

Turning to B7, the “PD50 (ng/ml), in vitro neutralization” value was determined as 620 ng/mL.

Take B8: the “PD50 (ng/ml), in vitro neutralization” value is 180 ng/mL.

In the case of B9, the “PD50 (ng/ml), in vitro neutralization” value came out at 14200 ng/mL.

Another experiment addresses T1, ricin toxin. The experiment in a line: ELISA, ricin-coated plate (FIG. 5A).
For the molecule B10, the binding result was “binds”.
